Test results reported in patent US9642889B2, “Macrocyclic inhibitors of Flaviviridae viruses” (Selcia Limited, priority 2012, dated 2017).

Chains of the proteins cited; added tags and fusions are not shown.
UniProt P62937, whole entry: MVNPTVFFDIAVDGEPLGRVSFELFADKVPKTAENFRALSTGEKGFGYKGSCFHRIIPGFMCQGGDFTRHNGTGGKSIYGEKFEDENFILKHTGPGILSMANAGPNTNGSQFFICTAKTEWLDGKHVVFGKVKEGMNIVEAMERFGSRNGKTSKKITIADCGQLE

Assays:
[1] = target: cyclophilin A (Homo sapiens, UniProt P62937); experiment: Cyclophilin A TR-FRET competitive binding assay; conditions: read-out: TR-FRET IC50; competition with CsA-Cy5 for His-tagged CypA, two-hour incubation
[2] = tested on: Huh-7 HCV replicon cells (1b replicon); experiment: anti-HCV activity in Huh-7 cell line harboring a HCV replicon (luciferase readout); type: cell-based
[3] = inhibition of viral replication, Huh-7 HCV replicon cells, 3 days

Structure (SMILES)	IC50 [1]	EC50 [2]	Replicon 1b % inhibition at 1 μM [2]	Replicon 1b % inhibition at 1 μM ([2]; 1b replicon, 1 μM compound)	EC50 [2, 3]
CC(C)[C@@H]1OC(=O)[C@H](CCC2(C)OCCO2)C/C=C/c2cc3cc(ccc3cn2)[C@@H](C)NC(=O)[C@@H]2CCCN(N2)C(=O)[C@H](C)NC1=O	< 100 nM	< 1000 nM	100%		
COCC1NC(=O)[C@H](C(C)C)OC(=O)C(C)(C)/C=C/c2ccc3ccc(nc3c2)[C@@H](C)NC(=O)[C@@H]2CCCN(N2)C1=O (single isomer, unassigned)	< 100 nM			99%	< 1000 nM
CC(C)[C@@H]1OC(=O)C2(/C=C/c3ccc4ccc(nc4c3)[C@@H](C)NC(=O)[C@@H]3CCCN(N3)C(=O)[C@H](C)NC1=O)COCCO2 (single isomer, unassigned) [Compound 43]	101 to 1000 nM			86%	< 1000 nM
CC(C)[C@@H]1OC(=O)C2(/C=C/c3ccc4ccc(nc4c3)[C@@H](C)NC(=O)[C@@H]3CCCN(N3)C(=O)[C@H](C)NC1=O)COC(C)(C)CO2 (single isomer, unassigned) [Compound 100]	< 100 nM			98%	< 1000 nM

Like-named read-outs stand apart in the source and are kept apart here.
